Compound potency records, mixed from different reports. Data source: NIAID ChemDB in PubChem.

Common to all: growth or infection tests; organism: Rhinovirus; endpoint: inhibition

An empty or dashed field is not shown. Inhibition is in % at the dose shown (toxicity tests: loss of growth or viability). Neighbouring rows are from separate reports.

structure,read by,tested at,strain or isolate,cell line,value
O=S(=O)([O-])c1cc(S(=O)(=O)[O-])c2cc(NS(=O)(=O)c3ccccc3)ccc2c1,cytopathic effect,10 µg/mL,,Human embryonic lung cells,10%
COc1ccc(N2CCN(c3cccc(C)c3)CC2)nn1,,0.047 µg/mL,17 serotypes,,18%
CN(C)c1nc(C(F)(F)F)nc2c1ncn2Cc1ccc(Cl)c(Cl)c1,plaque count,8 µM,Serotype 13,M-HELA,23%
NS(=O)(=O)O,cytopathic effect,5 µg/mL,,Human embryonic lung cells,0%
FC(F)(F)c1cccc(C2CCN(c3ccc(Br)nn3)C2)c1,,0.117 µg/mL,100 serotypes,,53%
NCS(=O)(=O)O,cytopathic effect,10 µg/mL,,Human amnion AV3 cells,50%
Cc1cccc(C2=CCN(c3ccc(Cl)nn3)CC2)c1,,2.6 µg/mL,100 serotypes,,71%
COc1ccc(Cn2cnc3c(N(C)C)nc(C(F)(F)F)nc32)cc1C,plaque count,8 µM,Serotype 3,M-HELA,28%
Cc1cccc(C2=CCN(c3ccc(Br)nn3)CC2)c1,,0.016 µg/mL,17 serotypes,,18%
CN(C)c1nc(C(F)(F)F)nc2c1ncn2Cc1ccc(S(C)(=O)=O)cc1,plaque count,8 µM,Serotype 5,M-HELA,40%
O=C(O)c1cc(S(=O)(=O)[O-])ccc1O,cytopathic effect,10 µg/mL,,Human embryonic lung cells,0%
N#Cc1cc([N+](=O)[O-])ccc1Oc1ccc(Cl)c(Cl)c1,,6.25 µg/mL,TYPE 1A,VERO,82%
Cc1cc(Cl)ccc1Cn1cnc2c(N(C)C)nc(C(F)(F)F)nc21,plaque count,8 µM,Serotype 15,M-HELA,11%
O=S(=O)([O-])c1cc(NS(=O)(=O)c2ccccc2)c2c(S(=O)(=O)[O-])cc(S(=O)(=O)[O-])cc2c1,cytopathic effect,5 µg/mL,,Human amnion AV3 cells,0%
CN(C)c1nc(C(F)(F)F)nc2c1ncn2Cc1cccc(F)c1,plaque count,8 µM,Serotype 30,M-HELA,28%
O=C(Nc1cc(S(=O)(=O)[O-])cc2cc(S(=O)(=O)[O-])ccc12)c1ccccc1,cytopathic effect,50 µg/mL,,Human embryonic lung cells,10%
CN(C)c1nc(C(F)(F)F)nc2c1ncn2Cc1ccc([N+](=O)[O-])cc1,plaque count,10 µM,Serotype 5,M-HELA,32%
FC(F)(F)c1cccc(C2CCN(c3ccc(Cl)nn3)C2)c1,,0.25 µg/mL,17 serotypes,,53%

The last 2 rows once more:

structure | read by | tested at | strain or isolate | cell line | value
CN(C)c1nc(C(F)(F)F)nc2c1ncn2Cc1ccc([N+](=O)[O-])cc1 | plaque count | 10 µM | Serotype 5 | M-HELA | 32%
FC(F)(F)c1cccc(C2CCN(c3ccc(Cl)nn3)C2)c1 |  | 0.25 µg/mL | 17 serotypes |  | 53%